Measured values from several laboratories, pooled; numbers as filed in NIAID ChemDB.

All rows: tests on isolated targets; species: Toxoplasma gondii

a–b is a range or a potency band. Inhibition is in % at the dose shown (toxicity tests: loss of growth or viability). Blank or dashed fields: not listed here. ICn is the concentration giving n% inhibition. Rows are shuffled and stem from different studies.

structure | strain or isolate | dose | endpoint | target | value
COc1cc(C2Cc3c(c4c(N)nc(N)nc4[nH]c3=O)C2)cc(OC)c1OC |  |  | IC50 | Dihydrofolate reductase | 9 µM
Nc1ccc(-c2nc3nc(N)nc(N)c3nc2-c2ccc(N)cc2)cc1 | RH |  | IC50 | DHFR | 10.9 µM
O=c1[nH]cc([N+](=O)[O-])c(=O)[nH]1 | RH | 2000 µM | inhibition | Uracil phosphoribosyltransferase | <5%
Cc1ncnc2nc[nH]c12 | RH |  | IC50 | Phosphoribosyltransferase | >900 µM
C1CCC([NH2+]C2CCCCC2)CC1.C1CCC([NH2+]C2CCCCC2)CC1.COc1cc([N+](=O)[O-])ccc1N/N=C(\C(=O)O)P(=O)([O-])[O-] |  |  | IC50 | Pyrophosphate-dependent phosphofructokinase | >2000 µM
COc1cccc2c1C(OC)CN2Cc1cnc2nc(N)nc(N)c2c1C |  |  | IC50 | Dihydrofolate reductase | 0.049 µM
Nc1ccc(S(=O)(=O)Nc2cc(Br)cc(Br)c2)cc1 |  |  | IC50 | DHPS | 26 µM
CC1(C)N=C(N)N=C(N)N1c1cccc(OCCOc2cccc([N+](=O)[O-])c2)c1 | RH |  | IC50 | DHFR | 0.04 µM
COc1ccc(OC)c(CN2CCc3nc(N)nc(N)c3C2)c1 |  |  | IC50 | DHFR | 0.3 µM
Nc1c[nH]c(=O)[nH]c1=O | RH | 2000 µM | inhibition | Uracil phosphoribosyltransferase | <5%
Nc1ccc(S(=O)(=O)NC2CCC(O)CC2)cc1 |  | 270 µM | inhibition | DHPS | 94%
CC(Oc1ccc(Oc2cnc3cc(Cl)ccc3n2)cc1)C(=O)O |  |  | IC50 | Acetyl-CoA carboxylase | 10–20 µM
CC1(C)N=C(N)N=C(N)N1c1ccc(OCCOc2ccc([N+](=O)[O-])cc2)cc1 | RH |  | IC50 | DHFR | 0.027 µM
C1CCC([NH2+]C2CCCCC2)CC1.C1CCC([NH2+]C2CCCCC2)CC1.O=C(O)/C(=N\Nc1ccc(F)cc1)P(=O)([O-])[O-] |  |  | IC50 | Pyrophosphate-dependent phosphofructokinase | 320 µM
Nc1nc(N)c2nc(CO)cnc2n1 |  |  | IC50 | Dihydrofolate reductase | >51 µM
CN(Cc1cnc2nc(N)nc(N)c2n1)c1cc(Cl)c(C(=O)N[C@@H](CCC(=O)O)C(=O)O)cc1Cl | RH |  | IC50 | DHFR | 0.082 µM
CN1CN(C)c2n[nH]nc2C1=O | RH |  | IC50 | Phosphoribosyltransferase | >900 µM
Nc1nc(N)c2c(n1)CCc1ccc(Cl)cc1-2 |  |  | IC50 | Dihydrofolate reductase | 0.57 µM
NC(=O)c1cnccn1 | RH | 2000 µM | inhibition | Uracil phosphoribosyltransferase | <5%
COc1cc(C2Cc3cnc4nc(N)nc(N)c4c3C2)cc(OC)c1OC |  |  | IC50 | Dihydrofolate reductase | 5.3 µM
Nc1nc(N)c2cc(CN3c4ccccc4C=Cc4ccccc43)cnc2n1 |  |  | IC50 | DHFR | 0.04 µM
CC1(C)N=C(N)N=C(N)N1c1ccc(CCC(=O)Nc2ccc(S(=O)(=O)F)cc2)cc1 | RH |  | IC50 | DHFR | 0.03 µM
COc1cc(CN2Cc3cnc4nc(N)nc(N)c4c3C2)cc(OC)c1OC |  |  | IC50 | Dihydrofolate reductase | 5.3 µM
CC(O)CN1CNc2c1c(=O)n(C)c(=O)n2C | RH | 900 µM | inhibition | Phosphoribosyltransferase | <10%
CN(CC1CCc2nc(N)nc(N)c2C1)c1cccc2ccccc12 |  |  | IC50 | DHFR | 23 µM
COc1cc(OC)nc(NS(=O)(=O)c2ccc(N)cc2)n1 |  |  | IC50 | DHPS | 1800 µM
COc1ccc(NCc2cnc3nc(N)nc(N)c3c2C)c2ccccc12 |  |  | IC50 | DHFR | 0.38 µM
CN1C(=O)N(C)C(=O)C(C)(NS(=O)(=O)c2ccc(N)cc2)C1=O |  | 510 µM | inhibition | DHPS | 75%
O=c1nc[nH]c(=O)[nH]1 | RH |  | Ki | Uracil phosphoribosyltransferase | 930 µM
Cc1cc2c(cc1C)-c1c(N)nc(N)nc1CC2 |  |  | IC50 | Dihydrofolate reductase | 0.038 µM
Nc1nc(N)c2cc(NC3c4ccccc4C=Cc4ccccc43)ccc2n1 |  |  | IC50 | DHFR | 5.8 µM
CC(C)OP(=O)(OC(C)C)C(=O)P(=O)(OC(C)C)OC(C)C |  |  | IC50 | Pyrophosphate-dependent phosphofructokinase | 170 µM
CCOC(=O)c1c[nH]c(=O)[nH]c1=O | RH |  | IC50 | Uracil phosphoribosyltransferase | >2000 µM
Nc1ncnc2[nH]ncc12 | RH | 900 µM | inhibition | Phosphoribosyltransferase | <10%
O=c1cc[nH]cc1 | RH |  | IC50 | Uracil phosphoribosyltransferase | >2000 µM
O=C1CC=Cc2[nH]ccc21 | RH |  | IC50 | Phosphoribosyltransferase | >900 µM
C1CCC([NH2+]C2CCCCC2)CC1.C1CCC([NH2+]C2CCCCC2)CC1.C1CCC([NH2+]C2CCCCC2)CC1.O=P([O-])([O-])C(Cl)P(=O)([O-])O |  |  | IC50 | Pyrophosphate-dependent phosphofructokinase | >2000 µM
COc1cc(CN2C=c3c(c4c([nH]c3=O)=NC(=N)N=C4N)C2)cc(OC)c1OC |  |  | IC50 | Dihydrofolate reductase | 0.62 µM
CC/C(=N\OC/C=C/Cl)C1C(=O)CC(C2(SC)CC2)CC1=O |  |  | IC50 | Acetyl-CoA carboxylase | >400 µM
NS(=O)(=O)c1nc[nH]c1[N+](=O)[O-] | RH | 900 µM | inhibition | Phosphoribosyltransferase | <10%
O=C(P(=O)(O)O)P(=O)(O)O |  |  | IC50 | Pyrophosphate-dependent phosphofructokinase | 13 µM
COc1ccc(-c2nc3nc(N)nc(N)c3[nH]2)c2ccccc12 |  |  | IC50 | DHFR | >13 µM
Nc1ccc(S(=O)(=O)Nc2cc(I)cc(I)c2)cc1 |  |  | Ki | DHPS | 2.5 µM
Nc1nc(N)c2[nH]c(-c3ccncc3)nc2n1 |  |  | IC50 | DHFR | >20 µM
Cc1cnc(C)c(NS(=O)(=O)c2ccc(N)cc2)n1 |  | 340 µM | inhibition | DHPS | 85%
Cn1c(=O)[nH]c(=O)c2[nH]c(=O)[nH]c21 | RH |  | IC50 | Phosphoribosyltransferase | >900 µM
Nc1nc(N)c2c(n1)Cc1cc(Cl)c(Cl)cc1-2 |  |  | IC50 | Dihydrofolate reductase | 0.63 µM
COc1cc(CCN2CCc3nc(N)nc(N)c3C2)cc(OC)c1OC |  |  | IC50 | DHFR | 3.2 µM
Nc1nc(N)c2c(ccc3c(Cl)cc(Cl)cc32)n1 |  |  | IC50 | Dihydrofolate reductase | 0.026 µM
Nc1ncc[nH]1 | RH |  | IC50 | Phosphoribosyltransferase | >900 µM
Nc1nc(N)c2cc(CN3c4ccccc4C=Cc4ccccc43)ccc2n1 |  |  | IC50 | DHFR | 0.034 µM
Cc1cc(C)nc(NS(=O)(=O)c2ccc(N)cc2)n1 |  |  | IC50 | DHPS | 430 µM
CN(Cc1cnc2nc(N)nc(N)c2n1)c1ccc(C(=O)NC(CCC(=O)NC(CCC(=O)O)C(=O)O)C(=O)O)cc1 | RH |  | IC50 | DHFR | 0.0027 µM
Nc1ccc(S(=O)(=O)Nc2cc(Cl)cc(Cl)c2)cc1 |  |  | Ki | DHPS | 1 µM
C=C(P(=O)([O-])[O-])P(=O)([O-])[O-].[Na+].[Na+].[Na+].[Na+] |  |  | IC50 | Pyrophosphate-dependent phosphofructokinase | 195 µM

Again, the opening 5 rows:

structure,strain or isolate,dose,endpoint,target,value
COc1cc(C2Cc3c(c4c(N)nc(N)nc4[nH]c3=O)C2)cc(OC)c1OC,,,IC50,Dihydrofolate reductase,9 µM
Nc1ccc(-c2nc3nc(N)nc(N)c3nc2-c2ccc(N)cc2)cc1,RH,,IC50,DHFR,10.9 µM
O=c1[nH]cc([N+](=O)[O-])c(=O)[nH]1,RH,2000 µM,inhibition,Uracil phosphoribosyltransferase,<5%
Cc1ncnc2nc[nH]c12,RH,,IC50,Phosphoribosyltransferase,>900 µM
C1CCC([NH2+]C2CCCCC2)CC1.C1CCC([NH2+]C2CCCCC2)CC1.COc1cc([N+](=O)[O-])ccc1N/N=C(\C(=O)O)P(=O)([O-])[O-],,,IC50,Pyrophosphate-dependent phosphofructokinase,>2000 µM